The structures appear in SMILES notation. Several values for one entry are separate records, joined by “and”; a condition that tells them apart may be missing. Equal values may be shown once.

In this series the test system is HepG2 cells. The conditions noted are these: HepG2 Tox50 over H37Rv MIC.
`Cc1ccc(-c2cc(CN3CCOCC3)c(C)n2-c2ccc(F)cc2)cc1` [Compound 5, 2-Methyl-3-[(morpholin-4-yl)-methyl]-5-[4-(methyl)phenyl]-1-[4-(fluoro)phenyl]-1H-pyrrole] registered a Tox50/MIC of 66.93.
Then `COc1ccc(-c2cc(CN3CCOCC3)c(C)n2-c2ccc(F)cc2)cc1` [Compound 6, 2-Methyl-3-[(morpholin-4-yl)-methyl]-5-[4-(methoxy)phenyl]-1-[4-(fluoro)phenyl]-1H-pyrrole], with above 41.66; and `CSc1ccc(-c2cc(CN3CCOCC3)c(C)n2-c2ccc(F)cc2)cc1` [Compound 7, 2-Methyl-3-[(morpholin-4-yl)-methyl]-5-[4-(methylthio)phenyl]-1-[4-(fluoro)phenyl]-1H-pyrrole], with 54.83; and `CCc1ccc(-c2cc(CN3CCOCC3)c(C)n2-c2ccc(F)cc2)cc1` [Compound 8, 2-Methyl-3-[(morpholin-4-yl)-methyl]-5-[4-(ethyl)phenyl]-1-[4-(fluoro)phenyl]-1H-pyrrole], with 97.5.
Regarding `Cc1c(CN2CCOCC2)cc(-c2ccc(C(C)C)cc2)n1-c1ccc(F)cc1` [Compound 9, 2-Methyl-3-[(morpholin-4-yl)-methyl]-5-[4-(i-propyl)phenyl]-1-[4-(fluoro)phenyl]-1H-pyrrole], the Tox50/MIC is > 100 and 127.5.
`Cc1ccc(-c2cc(CN3CCOCC3)c(C)n2-c2ccc(Cl)cc2)cc1` [Compound 10, 2-Methyl-3-[(morpholin-4-yl)-methyl]-5-[4-(methyl)phenyl]-1-[4-(chloro)phenyl]-1H-pyrrole] returned a Tox50/MIC of 41.66.
Take `CCc1ccc(-c2cc(CN3CCOCC3)c(C)n2-c2ccc(Cl)cc2)cc1` [Compound 11, 2-Methyl-3-[(morpholin-4-yl)-methyl]-5-[4-(ethyl)phenyl]-1-[4-(chloro)phenyl]-1H-pyrrole]: the Tox50/MIC came to 44.
Then `CCCc1ccc(-c2cc(CN3CCOCC3)c(C)n2-c2ccc(Cl)cc2)cc1` [Compound 12, 2-Methyl-3-[(morpholin-4-yl)-methyl]-5-[4-(propyl)phenyl]-1-[4-(chloro)phenyl]-1H-pyrrole], with 6.65.
Next, `Cc1c(CN2CCOCC2)cc(-c2ccc(C(C)C)cc2)n1-c1ccc(Cl)cc1` [Compound 13, 2-Methyl-3-[(morpholin-4-yl)-methyl]-5-[4-(i-propyl)phenyl]-1-[4-(chloro)phenyl]-1H-pyrrole]: 16.66; `Cc1ccc(-n2c(-c3ccc(Cl)cc3)cc(CN3CCOCC3)c2C)cc1` [Compound 14, 2-Methyl-3-[(morpholin-4-yl)-methyl]-5-[4-(chloro)phenyl]-1-[4-(methyl)phenyl]-1H-pyrrole]: 20.
Next, `CCc1ccc(-n2c(-c3ccc(Cl)cc3)cc(CN3CCOCC3)c2C)cc1` [Compound 15, 2-Methyl-3-[(morpholin-4-yl)-methyl]-5-[4-(chloro)phenyl]-1-[4-(ethyl)phenyl]-1H-pyrrole]: 29.66; `CCCc1ccc(-n2c(-c3ccc(Cl)cc3)cc(CN3CCOCC3)c2C)cc1` [Compound 16, 2-Methyl-3-[(morpholin-4-yl)-methyl]-5-[4-(chloro)phenyl]-1-[4-(propyl)phenyl]-1H-pyrrole]: 25.66.
The molecule `Cc1c(CN2CCOCC2)cc(-c2ccc(Cl)cc2)n1-c1ccc(C(C)C)cc1` [Compound 17, 2-Methyl-3-[(morpholin-4-yl)-methyl]-5-[4-(chloro)phenyl]-1-[4-(i-propyl)phenyl]-1H-pyrrole] returned a Tox50/MIC of 16.33.
In turn, `COc1ccc(-n2c(-c3ccc(C)cc3)cc(CN3CCOCC3)c2C)cc1` [Compound 18, 2-Methyl-3-[(morpholin-4-yl)-methyl]-5-[4-(methyl)phenyl]-1-[4-(methoxy)phenyl]-1H-pyrrole] had a Tox50/MIC of 5.85.
`CCc1ccc(-c2cc(CN3CCOCC3)c(C)n2-c2ccc(OC)cc2)cc1` [Compound 19, 2-Methyl-3-[(morpholin-4-yl)-methyl]-5-[4-(ethyl)phenyl]-1-[4-(methoxy)phenyl]-1H-pyrrole] showed a Tox50/MIC of 19.
Then `CCCc1ccc(-c2cc(CN3CCOCC3)c(C)n2-c2ccc(OC)cc2)cc1` [Compound 20, 2-Methyl-3-[(morpholin-4-yl)-methyl]-5-[4-(propyl)phenyl]-1-[4-(methoxy)phenyl]-1H-pyrrole], with 47.66.
Next, `COc1ccc(-n2c(-c3ccc(C(C)C)cc3)cc(CN3CCOCC3)c2C)cc1` [Compound 21, 2-Methyl-3-[(morpholin-4-yl)-methyl]-5-[4-(i-propyl)phenyl]-1-[4-(methoxy)phenyl]-1H-pyrrole]: 47; `COc1ccc(-c2cc(CN3CCOCC3)c(C)n2-c2ccc(C)cc2)cc1` [Compound 22, 2-Methyl-3-[(morpholin-4-yl)-methyl]-5-[4-(methoxy)phenyl]-1-[4-(methyl)phenyl]-1H-pyrrole]: 18.83; `CCc1ccc(-n2c(-c3ccc(OC)cc3)cc(CN3CCOCC3)c2C)cc1` [Compound 23, 2-Methyl-3-[(morpholin-4-yl)-methyl]-5-[4-(methoxy)phenyl]-1-[4-(ethyl)phenyl]-1H-pyrrole]: 49.
Then `CCCc1ccc(-n2c(-c3ccc(OC)cc3)cc(CN3CCOCC3)c2C)cc1` [Compound 24], with 13.12; and `COc1ccc(-c2cc(CN3CCOCC3)c(C)n2-c2ccc(C(C)C)cc2)cc1` [Compound 25], with 79.5.
